From paper PMC6185908, “Epistasis studies reveal redundancy among calcium-dependent protein kinases in motility and invasion of malaria parasites” (2018)

Amino acid sequences for entries named in this document (tags omitted). A change or cut given only in a name is not applied to a line headed by its entry. Residues count along the entry.
UniProt Q8I719: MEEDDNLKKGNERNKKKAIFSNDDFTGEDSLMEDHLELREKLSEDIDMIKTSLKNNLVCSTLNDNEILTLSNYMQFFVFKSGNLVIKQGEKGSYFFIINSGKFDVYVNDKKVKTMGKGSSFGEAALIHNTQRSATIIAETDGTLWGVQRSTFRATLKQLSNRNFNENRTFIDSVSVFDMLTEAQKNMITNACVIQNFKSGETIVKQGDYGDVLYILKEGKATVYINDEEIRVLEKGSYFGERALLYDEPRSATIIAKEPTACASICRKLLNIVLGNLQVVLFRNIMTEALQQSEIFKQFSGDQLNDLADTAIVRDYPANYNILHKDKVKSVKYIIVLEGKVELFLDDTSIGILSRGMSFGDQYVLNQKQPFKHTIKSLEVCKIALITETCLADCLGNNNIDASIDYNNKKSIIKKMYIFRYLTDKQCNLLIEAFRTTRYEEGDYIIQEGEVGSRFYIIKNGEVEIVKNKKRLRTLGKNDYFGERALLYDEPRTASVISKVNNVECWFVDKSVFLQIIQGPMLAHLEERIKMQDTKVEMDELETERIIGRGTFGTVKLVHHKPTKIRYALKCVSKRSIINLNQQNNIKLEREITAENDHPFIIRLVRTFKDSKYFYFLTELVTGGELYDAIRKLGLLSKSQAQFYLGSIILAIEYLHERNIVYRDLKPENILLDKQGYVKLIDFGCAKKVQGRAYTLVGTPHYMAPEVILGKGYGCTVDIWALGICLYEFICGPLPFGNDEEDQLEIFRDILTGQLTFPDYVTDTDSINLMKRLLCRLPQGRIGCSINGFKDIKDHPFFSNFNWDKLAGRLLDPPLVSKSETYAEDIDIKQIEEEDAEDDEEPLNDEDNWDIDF
UniProt P62345, 2-528 limits assumed: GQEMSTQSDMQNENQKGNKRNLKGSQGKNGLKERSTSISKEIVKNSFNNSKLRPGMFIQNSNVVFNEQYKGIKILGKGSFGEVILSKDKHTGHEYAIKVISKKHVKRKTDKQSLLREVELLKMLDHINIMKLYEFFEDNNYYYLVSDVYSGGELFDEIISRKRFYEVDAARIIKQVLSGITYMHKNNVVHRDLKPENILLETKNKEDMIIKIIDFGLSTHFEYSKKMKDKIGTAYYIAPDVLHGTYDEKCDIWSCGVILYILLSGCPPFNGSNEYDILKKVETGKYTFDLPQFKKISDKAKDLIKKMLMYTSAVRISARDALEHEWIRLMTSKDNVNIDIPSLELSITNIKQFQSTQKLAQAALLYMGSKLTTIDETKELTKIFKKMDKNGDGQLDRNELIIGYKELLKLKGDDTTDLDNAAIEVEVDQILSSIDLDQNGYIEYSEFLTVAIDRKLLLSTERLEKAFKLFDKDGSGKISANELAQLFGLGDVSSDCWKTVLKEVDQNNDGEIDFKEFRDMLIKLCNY

Legend:
[1] = molecular target: PfPKG (cGMP-dependent protein kinase) (Plasmodium falciparum, UniProt Q8I719); test: ATP Km determination with recombinant kinase
[2] = molecular target: CDPK4 (PbCDPK4, calcium-dependent protein kinase 4) (Plasmodium berghei, UniProt P62345); test: ring formation in C2 after complementation with CDPK4 versus S147M gatekeeper mutant
[3] = molecular target: PKG (PfPKG, cGMP-dependent protein kinase) (Plasmodium falciparum, UniProt Q8I719); test: schizont rupture in 3D7 versus C2-resistant PKG T618Q gatekeeper line

SMILES | Km [1] [µM] | ring formation in C2 after complementation with CDPK4 versus S147M gatekeeper mu [2] | EC50 [3] [nM]
Nc1ncnc2c1ncn2[C@@H]1O[C@H](COP(=O)(O)OP(=O)(O)OP(=O)(O)O)[C@@H](O)[C@H]1O | 19.6 | – | –
CN(C)Cc1ccn2c(-c3ccnc(N)n3)c(-c3ccc(F)cc3)nc2c1 | – | Complementation with PbCDPK4-2xmyc lowers ring formation in the presence of C2, while complementation with the PbCDPK4^S147M-2xmyc allele does not | 800
